# Laboratory results: PubChem BioAssay AID1259414 (Drosophila RNAi Screening Center, 2018)
# Aim: 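Host factors increasing or decreasing Wolbachia levels in cultured fly cells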 (primary screen)
# Cells: Drosophila JW18 cells infected with Wolbachia
# Knock-down reagent: long dsRNA against Drosophila genes, 0.25 µg dsRNA per well of a 384-well plate
# Time to read-out: 5 days
# Conditions: cells persistently infected with Wolbachia before knock-down; no added drug
# Measured: 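Automated imaging of bacterial rRNA staining divided by host cell count, reported as plate-normalised robust z-score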
# Direction: Wolbachia per cell robust z: higher = more Wolbachia per host cell than the plate typical
# Rule for the call: 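Active if absolute robust z reaches 1.5 in two or more of three replicates, leaving out multi- or no-target dsRNAs, genes unexpressed in JW18 and A1 wells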
# In all, the deposit lists about 24,000 reagents; this is an unselected part of those that have a named target and a result. In the full data, about 1,210 (5%) were called active. 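Inactive calls also include excluded dsRNAs with several or no targets, genes unexpressed in JW18, and well A1, regardless of score.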 Names joined by + are all predicted targets of the reagent.
Target gene,PubChem SID,"Wolbachia per cell robust z, rep 1","Wolbachia per cell robust z, rep 2","Wolbachia per cell robust z, rep 3",outcome
tra2,SID104187500,-0.48,-3.32,-2.4,active
tra2,SID104208248,0.069,0.409,-0.324,inactive
CG1695,SID104200330,-0.399,-0.088,0.476,inactive
CG1695,SID104204106,-0.453,0.24,-13,inactive
Nf-YB,SID104181849,-0.909,-0.395,-0.672,inactive
lncRNA:CR32661 + lncRNA:CR43157,SID104199586,-1.76,-0.0286,0.0793,inactive
LSm-4 + CG17768,SID104182637,-1.18,0.264,-4.59,inactive
Myo10A,SID104199626,-0.284,0.954,-2.56,inactive
Myo10A,SID104199629,0.774,0.486,0.25,inactive
Myo10A,SID104202497,0.886,1.14,1.3,inactive
Myo10A,SID104206538,-0.169,-0.157,-0.664,inactive
Hsc70-4,SID104196503,2.4,3.16,2.77,active
Hsc70-4,SID104208273,3.2,2.02,3.2,active
vimar,SID104184818,1.8,0.855,1.28,inactive

Laid out differently: entries from further up
| Target gene | PubChem SID | Wolbachia per cell robust z, rep 1 | Wolbachia per cell robust z, rep 2 | Wolbachia per cell robust z, rep 3 | outcome |
| --- | --- | --- | --- | --- | --- |
| Myo10A | SID104202497 | 0.886 | 1.14 | 1.3 | inactive |
| Myo10A | SID104206538 | -0.169 | -0.157 | -0.664 | inactive |
| Hsc70-4 | SID104196503 | 2.4 | 3.16 | 2.77 | active |

Next records follow.
Target gene,PubChem SID,"Wolbachia per cell robust z, rep 1","Wolbachia per cell robust z, rep 2","Wolbachia per cell robust z, rep 3",outcome
ImpL2,SID104188458,-0.569,0.423,-0.428,inactive
ImpL2,SID104207235,-6.21,0.641,-0.413,inactive
CG4968,SID104182586,0.315,0.144,-3.26,inactive
CG4968,SID104208284,0.749,0.965,0.48,inactive
CG13159,SID104186075,0.636,1.21,-0.672,inactive
CG13159,SID104206637,-0.749,-0.681,0.603,inactive
CG10555,SID104202559,-0.458,1.54,-1.57,inactive
CG10555,SID104206282,0.117,0.343,1.17,inactive
Ate1,SID104185717,0.387,0.811,-3.65,inactive
Ate1,SID104203362,1.2,-1.63,0.412,inactive
term,SID104201401,0.223,-0.0529,-0.146,inactive
CG13705,SID104188106,-0.982,-0.724,-0.908,inactive
CG13705,SID104202080,-2.74,0.681,0.853,inactive
CG13705,SID104203719,0.0844,-0.674,0.471,inactive
